One data set has as its system Sp1 (recombinant). The data set can be described thus: EMSA. As to conditions: labeled commercial probe; not stated; EMSA according to the manufacturers' protocols (Signosis, Sigma Aldrich), 40x cold competitor; commercial protein; label: 32P end label (unlabeled as competitor). On the technique in general: A gel shift assay detects complexes by their altered migration in electrophoresis.

In another data set the test system is Egr-1 (recombinant). The data set can be described thus: EMSA. As to conditions: commercial probe, HSV-1 30mer competed; not stated; EMSA according to the manufacturers' protocols (Signosis, Sigma Aldrich), 40x cold competitor; commercial protein; label: 32P end label.

The exact form of at least one protein or probe is not confirmed. At least one verdict was read from the data and is not stated in words by the source.

As to “ATTCGATCGGGGCGGGGCGACTGAT (double strand) [commercial Sp1 oligonucleotide]”, the binding result in the data set with Sp1 (recombinant) was “binds”.
For the sequence “ATCCAGCGGGGGCAGCGGGGGCGA (double strand) [commercial Egr-1 oligonucleotide]”, the binding result in the data set on Egr-1 (recombinant) is “binds”.

The values are drawn from publication PMC6668326.
